Results of unrelated studies side by side (data: NIAID ChemDB).

All rows: enzyme or target tests; species: HIV-1; protein: Reverse transcriptase; measure: fold resistance

Lines come from different laboratories, so protocols vary.

structure	changes	strain	method	value
Cc1cc(S(N)(=O)=O)ccc1NC(=O)CSc1nnc(Br)n1-c1ccc(F)c2ccccc12	RT-Y188L		nucleotide incorporation / radiometric	>2
CCN1c2ncc(CCOc3ccc(C(=O)O)c4c3CCN(C(C)=O)C4)cc2C(=O)N(C)c2cccnc21	RT-K103N Y181C		nucleotide incorporation / radiometric	1–10
CCN1c2ncc(CCOc3ccc(-c4cc(C)cnc4N)cc3C)cc2C(=O)N(C)c2cccnc21	RT-K103N Y181C	IIIB	nucleotide incorporation / radiometric	1
Cc1ccc(-n2c(SCC(=O)Nc3ccc(S(=O)(=O)NC(C(=O)O)C(C)C)cc3Cl)nnc2C(F)F)c2c1CCCC2	RT-Y188L		nucleotide incorporation / radiometric	>2
CCN1c2ncc(CCOc3cccc4c3ccc[n+]4[O-])cc2C(=O)N(C)c2ccc(Cl)nc21	RT-K103N V108I		nucleotide incorporation / radiometric	6.4
CCc1ccc(-n2c(Br)nnc2SCC(=O)Nc2ccc(C(=O)NCC(=O)O)cc2Cl)c2ccccc12	RT-Y188L		nucleotide incorporation / radiometric	>2
CCN1c2ncc(CCOc3ccc(-c4ncccn4)cc3)cc2C(=O)N(C)c2cccnc21	RT-K103N Y181C	IIIB	nucleotide incorporation / radiometric	>2
CCc1cc(NCc2nc3c(C)ccc(C)c3o2)c(=O)[nH]c1C	RT-Y181W		nucleotide incorporation	6.3
CCN1c2ncc(CCOc3ccc(-c4ccc(C)[n+]([O-])c4)cc3C)cc2C(=O)N(C)c2cccnc21	RT-K103N Y181C	IIIB	nucleotide incorporation / radiometric	1
CCc1ccc(-n2c(Br)nnc2SCC(=O)Nc2ccc(C(=O)NCC(=O)OC)cc2Cl)c2ccccc12	RT-Y188L		nucleotide incorporation / radiometric	>1
CCN1c2ncc(CCOc3ccc(-c4ccc(CC(=O)O)cc4)cc3C)cc2C(=O)Nc2c(C)ccnc21	RT-K103N Y181C	IIIB	nucleotide incorporation / radiometric	1
CCN1c2ncc(CCOc3ccc(CC(=O)O)c4ccccc34)cc2C(=O)N(C)c2cccnc21	RT-V106A		nucleotide incorporation / radiometric	>10
CCN1c2ncc(CCOc3ccc(-c4ccc(CC(=O)O)cc4OC)cc3C)cc2C(=O)N(C)c2cccnc21	RT-K103N Y181C	IIIB	nucleotide incorporation / radiometric	1
CCN1c2ncc(CCOc3ccc(C(=O)O)c4c3CCN(S(=O)(=O)N(C)C)C4)cc2C(=O)N(C)c2cccnc21	RT-V106A		nucleotide incorporation / radiometric	1–10
CCc1ccc(-n2c(CF)nnc2SCC(=O)Nc2ccc(C(=O)O)cc2Cl)c2ccccc12	RT-Y188L		nucleotide incorporation / radiometric	>2
CCN1c2ncc(CCOc3ccc(C(C)C(=O)O)c4ccccc34)cc2C(=O)N(C)c2cccnc21	RT-Y188L		nucleotide incorporation / radiometric	>10
CCN1c2ncc(CCOc3ccc(-c4cc(C(=O)O)ccc4OC)cc3C)cc2C(=O)N(C)c2cccnc21	RT-K103N Y181C	IIIB	nucleotide incorporation / radiometric	>2
CCN1c2ncc(CCOc3ccc(/C=C(\C)C(=O)O)c4ccccc34)cc2C(=O)N(C)c2cccnc21	RT-Y188L		nucleotide incorporation / radiometric	>10
CCc1ccc(-n2c(Br)nnc2SCC(=O)Nc2ccc(C(=O)N[C@H](C(=O)OC)C(C)C)cc2Cl)c2ccccc12	RT-Y181C		nucleotide incorporation / radiometric	<1

For reference, 3 entries again:

structure | changes | strain | method | value
CCN1c2ncc(CCOc3ccc(C(=O)O)c4c3CCN(S(=O)(=O)N(C)C)C4)cc2C(=O)N(C)c2cccnc21 | RT-V106A |  | nucleotide incorporation / radiometric | 1–10
Cc1cc(S(N)(=O)=O)ccc1NC(=O)CSc1nnc(Br)n1-c1ccc(F)c2ccccc12 | RT-Y188L |  | nucleotide incorporation / radiometric | >2
CCN1c2ncc(CCOc3ccc(-c4ccc(CC(=O)O)cc4OC)cc3C)cc2C(=O)N(C)c2cccnc21 | RT-K103N Y181C | IIIB | nucleotide incorporation / radiometric | 1

Fold resistance has wild type as its base. An empty or dashed field is not shown. Two numbers with a dash give a range or band.